Test results published in publication PMC8878748, “Broad-Spectrum Antiviral Activity of the Amphibian Antimicrobial Peptide Temporin L and Its Analogs” (International Journal of Molecular Sciences, 2022).
Where a SMILES comes first, the peptide text is derived from it. [ ]: non-standard residue; d: D form. The star is where a group is joined. X1 = CC(C)CCC[C@@H](C)[C@H]1CC[C@H]2[C@@H]3CC=C4C[C@@H](OC(=O)CCOCCOCCOCCOCCNC(=O)C*)CC[C@]4(C)[C@H]3CC[C@]12C; Palmitoyl = CCCCCCCCCCCCCCCC(=O)*; Tridecanoyl = CCCCCCCCCCCCC(=O)*; Undecanoyl = CCCCCCCCCCC(=O)*; Nle = CCCC[C@H](N)C(=O)O

Tests used:
Settings in all cases: therapeutic index CC50/IC50
[1] = system: influenza virus (subtype H1N1)
HSV-1 = system: HSV-1
SARS-CoV-2 = system: SARS-CoV-2
MeV = system: MeV

| SMILES | TI Influenza [1] | TI HSV-1 (HSV-1) | TI SARS-CoV-2 (SARS-CoV-2) | TI MeV (MeV) |
| --- | --- | --- | --- | --- |
| CCCC[C@H](NC(=O)[C@@H](CC(C)C)NC(=O)[C@H](Cc1ccccc1)NC(=O)[C@H](CCCCN)NC(=O)[C@H](CO)NC(=O)[C@H](Cc1ccccc1)NC(=O)[C@H](Cc1c[nH]c2ccccc12)NC(=O)[C@@H]1CCCN1C(=O)[C@@H](NC(=O)[C@@H](N)Cc1ccccc1)C(C)C)C(=O)N[C@@H](CCCNC(=N)N)C(=O)N[C@H](C(=O)N[C@@H](CC(C)C)C(=O)NCC(=O)NCC(=O)N[C@@H](CSCC(=O)NCCOCCOCCOCCOCCC(=O)O[C@H]1CC[C@@]2(C)C(=CC[C@H]3[C@@H]4CC[C@H]([C@H](C)CCCC(C)C)[C@@]4(C)CC[C@@H]32)C1)C(N)=O)[C@@H](C)CC [TL6.2, H-Phe-Val-Pro-Trp-Phe-Ser-Lys-Phe-DLeu-Nle-Arg-Ile-Leu-Gly-Gly-Cys-[PEG4-Cholesterol]-NH2] (H-FVPWFSKF[dL][Nle]RILGGC(X1)-NH2) | 4.73 | 10.48 | 8.25 | 2.45 |
| CCCC[C@H](NC(=O)[C@@H](CC(C)C)NC(=O)[C@H](Cc1ccccc1)NC(=O)[C@H](CCCCN)NC(=O)[C@H](CO)NC(=O)[C@H](Cc1ccccc1)NC(=O)[C@H](Cc1c[nH]c2ccccc12)NC(=O)[C@@H]1CCCN1C(=O)[C@@H](NC(=O)[C@H](Cc1ccccc1)NC(=O)[C@@H](N)CSCC(=O)NCCOCCOCCOCCOCCC(=O)O[C@H]1CC[C@@]2(C)C(=CC[C@H]3[C@@H]4CC[C@H]([C@H](C)CCCC(C)C)[C@@]4(C)CC[C@@H]32)C1)C(C)C)C(=O)N[C@@H](CCCNC(=N)N)C(=O)N[C@H](C(=O)N[C@@H](CC(C)C)C(N)=O)[C@@H](C)CC [TL6.3, H-[Cholesterol-PEG4]-Cys-Phe-Val-Pro-Trp-Phe-Ser-Lys-Phe-DLeu-Nle-Arg-Ile-Leu-NH2] (H-C(X1)FVPWFSKF[dL][Nle]RIL-NH2; N-terminus assumed) | 39.22 | 112.36 | 131.58 | 4.48 |
| CCCCCCCCCCCCC(=O)N[C@@H](Cc1ccccc1)C(=O)N[C@H](C(=O)N1CCC[C@H]1C(=O)N[C@@H](Cc1c[nH]c2ccccc12)C(=O)N[C@@H](Cc1ccccc1)C(=O)N[C@@H](CO)C(=O)N[C@@H](CCCCN)C(=O)N[C@@H](Cc1ccccc1)C(=O)N[C@H](CC(C)C)C(=O)N[C@@H](CCCC)C(=O)N[C@@H](CCCNC(=N)N)C(=O)N[C@H](C(=O)N[C@@H](CC(C)C)C(N)=O)[C@@H](C)CC)C(C)C [TL6.6, H-Tridecanoic acid-Phe-Val-Pro-Trp-Phe-Ser-Lys-Phe-DLeu-Nle-Arg-Ile-Leu-NH2] (Tridecanoyl-FVPWFSKF[dL][Nle]RIL-NH2) | 29.50 | 71.94 | 256.41 | 3.00 |
| CCCCCCCCCCCCCCCC(=O)N[C@@H](Cc1ccccc1)C(=O)N[C@H](C(=O)N1CCC[C@H]1C(=O)N[C@@H](Cc1c[nH]c2ccccc12)C(=O)N[C@@H](Cc1ccccc1)C(=O)N[C@@H](CO)C(=O)N[C@@H](CCCCN)C(=O)N[C@@H](Cc1ccccc1)C(=O)N[C@H](CC(C)C)C(=O)N[C@@H](CCCC)C(=O)N[C@@H](CCCNC(=N)N)C(=O)N[C@H](C(=O)N[C@@H](CC(C)C)C(N)=O)[C@@H](C)CC)C(C)C [TL6.8, H-Palmitic acid-Phe-Val-Pro-Trp-Phe-Ser-Lys-Phe-DLeu-Nle-Arg-Ile-Leu-NH2] (Palmitoyl-FVPWFSKF[dL][Nle]RIL-NH2) | 20.96 | 31.95 | 129.87 | 2.54 |
| CCCCCCCCCCC(=O)N[C@@H](Cc1ccccc1)C(=O)N[C@H](C(=O)N1CCC[C@H]1C(=O)N[C@@H](Cc1c[nH]c2ccccc12)C(=O)N[C@@H](Cc1ccccc1)C(=O)N[C@@H](CO)C(=O)N[C@@H](CCCCN)C(=O)N[C@@H](Cc1ccccc1)C(=O)N[C@H](CC(C)C)C(=O)N[C@@H](CCCC)C(=O)N[C@@H](CCCNC(=N)N)C(=O)N[C@H](C(=O)N[C@@H](CC(C)C)C(N)=O)[C@@H](C)CC)C(C)C [TL6.5, H-Undecanoic acid-Phe-Val-Pro-Trp-Phe-Ser-Lys-Phe-DLeu-Nle-Arg-Ile-Leu-NH2] (Undecanoyl-FVPWFSKF[dL][Nle]RIL-NH2) | – | 1000.00 | 1000.00 | – |
